Activity change, negative = less growth data for 93 compounds are collected here from PubChem BioAssay AID651644 (National Center for Advancing Translational Sciences (NCATS), 2012).

Only a part is listed here, and it is no random draw. Activity calls are given as the source filed them. The call rests on the fitted dose curve; in most records, active means well fitted falling curve with a large enough effect; inconclusive means small, poorly fitted or top-dose-only effect; inactive means no such curve, though single readings can be large or run the other way.
On the % scale 0 is the no-effect control and ±100 the full control effect.

This assay in a line: qHTS Assay for Inhibitors of the HIV-1 protein Vpr. Further: nearly all actives have a fitted effect of over 50% in size. As to conditions: S. pombe RE007 Vpr strain, BacTiter-Glo ATP luminescence, 24 h; at 92.2 µM (top of the series).
`N/C(=N\O)c1c(N)no[n+]1[O-]`: the activity change, negative = less growth is inactive: -4.47%.
For the compound `COc1cccc(C(c2nnnn2C(C)(C)C)N2CCC(n3c(=O)[nH]c4ccccc43)CC2)c1OC` (stereo not drawn), the activity change, negative = less growth was inactive: 4.47%.
Then `CCOC(=O)N1CCC(Nc2ccc(C)cc2)CC1`, with inactive: -24.4%.
Then `CCCCn1nnnc1C(c1cccc(OC)c1OC)N1CCC(n2c(=O)[nH]c3ccccc32)CC1` (stereo not drawn), with inactive: 3.32%; and `O=C(OC1CN2CCC1CC2)C1c2ccccc2C=Cc2ccccc21` (stereo not drawn), with inactive: 6.37%; and `CCc1cc(C(=O)NCC2(N3CCCCC3)CCCCC2)sc1C`, with inactive: -7.6%.
With `O=c1[nH]c2ccccc2n1C1CCN(C(c2cccs2)c2nnnn2C2CCCC2)CC1` (stereo not drawn), the activity change, negative = less growth is inactive: 3.17%.
With `O=C(O)c1cccc(Nc2c([N+](=O)[O-])cc([N+](=O)[O-])cc2[N+](=O)[O-])c1`, the activity change, negative = less growth was inactive: -0.252%.
With `O=C(NCC1(N2CCOCC2)CCCCC1)c1cc(Br)ccc1Cl` the figure was inactive: -15.3%; with `CCCCn1nnnc1C(c1ccccc1)N1CCC(n2c(=O)[nH]c3ccccc32)CC1` (stereo not drawn), inactive: -0.636%; with `COc1cc(C(=O)NCC2(N3CCOCC3)CCCCC2)cc(OC)c1C`, inactive: -7.19%.
Take `COc1ccc(C(=O)NCC2(N3CCOCC3)CCCCC2)cc1OC`: the activity change, negative = less growth is inactive: -14.9%.
With `O=c1[nH]c2ccccc2n1C1CCN(C(c2ccnc3ccccc23)c2nnnn2C2CCCC2)CC1` (stereo not drawn) the figure was inactive: 5.31%.
Then `O=c1[nH]c2ccccc2n1C1CCN(C(c2cccs2)c2nnnn2C2CCCCC2)CC1` (stereo not drawn), with inactive: -12.2%; and `c1ccc(CN2CCC(Nc3ccccc3)CC2)cc1`, with inactive: -8.11%.
In the case of `O=c1[nH]c2ccccc2n1C1CCN(C(c2ccccc2)c2nnnn2C2CCCC2)CC1` (stereo not drawn), the activity change, negative = less growth is inactive: 0.0669%.
Then `CCCN1CCC(Nc2cc(OC)cc(OC)c2)CC1`, with inactive: -5.17%; and `Cc1cc(N(CCCl)CCCl)ccc1C=O`, with inactive: -27%.
Then `CN(C)C1(CNC(=O)c2cccc(C#N)c2)CCCCC1`, with inactive: -7.31%; and `CC(C)(C)n1nnnc1C(c1cccc2ccccc12)N1CCC(n2c(=O)[nH]c3ccccc32)CC1` (stereo not drawn), with inactive: 1.78%; and `CC(C)(C)OC(=O)N1CCC(N(C(=O)c2ccccc2)c2ccc(Cl)cc2)CC1`, with inactive: -1.64%.
Consider `N#Cc1ccc(C(=O)NCC2(N3CCCCC3)CCCCC2)cc1`, for which the activity change, negative = less growth was inactive: -4.25%.
Then `CCOC(=O)C(CC)C1=NC(C)(C)Cc2ccccc21.O=[N+]([O-])c1cc([N+](=O)[O-])c(O)c([N+](=O)[O-])c1` (stereo not drawn), with inactive: 2.43%; and `Cc1ccccc1NC1(C#N)CCN(Cc2ccccc2)CC1`, with inactive: 5.58%.
Then `CC(C)(C)n1nnnc1C(c1ccnc2ccccc12)N1CCC(n2c(=O)[nH]c3ccccc32)CC1` (stereo not drawn), with inactive: 0.245%.
With `COc1ccc(C(c2nnnn2C2CCCCC2)N2CCC(n3c(=O)[nH]c4ccccc43)CC2)cc1` (stereo not drawn) the figure was inactive: -6.49%; with `CCN1CCC(Nc2cccc(F)c2)CC1`, inactive: 2.37%; with `O=C(NCC1(N2CCCCC2)CCCCC1)c1ccco1`, inactive: -2.04%.
Take `Cn1c(=O)[nH]cc(N(CCCl)CCCl)c1=O`: the activity change, negative = less growth is inactive: -25.2%.
With `CN(C)c1ccc(C(=O)NCC2(N3CCCCC3)CCCCC2)cc1` the figure was inactive: -4.68%.
Then `O=c1[nH]c2ccccc2n1C1CCN(C(c2ccnc3ccccc23)c2nnnn2C2CCCCC2)CC1` (stereo not drawn), with inactive: -7.14%; and `COc1cc(OC)cc(C(=O)NCC2(N3CCCCC3)CCCCC2)c1`, with inactive: 1.18%.
With `CC(=O)N(c1ccccc1)C1CCNCC1` the figure was inactive: -9.05%; with `COc1cccc(C(c2nnnn2C2CCCCC2)N2CCC(n3c(=O)[nH]c4ccccc43)CC2)c1OC` (stereo not drawn), inactive: 3.37%.
As for `CCC(c1nnnn1C1CCCCC1)N1CCC(n2c(=O)[nH]c3ccccc32)CC1` (stereo not drawn), the activity change, negative = less growth was inactive: -0.319%.
`Cc1ccc(NC2(C#N)CCN(Cc3ccccc3)CC2)cc1`: the activity change, negative = less growth is inactive: -3.38%.
With `Cc1ccc(C(=O)NCC2(N3CCCCC3)CCCCC2)o1`, the activity change, negative = less growth was inactive: -7.8%.
Then `Fc1ccccc1NC1CCN(Cc2ccccc2)CC1`, with inactive: -3.46%; and `CCC(CO)(C(=O)OC1CN2CCC1CC2)c1ccccc1` (stereo not drawn), with inactive: 1.74%.
As to `COc1cc(OC)cc(C(=O)NCC2(N3CCOCC3)CCCCC2)c1`, the activity change, negative = less growth is inactive: 17.3%.
Consider `COc1cccc(C(c2nnnn2C2CCCC2)N2CCC(n3c(=O)[nH]c4ccccc43)CC2)c1OC` (stereo not drawn), for which the activity change, negative = less growth was inactive: 1.06%.
In the case of `COc1cccc(C(=O)N(c2cc(C)cc(C)c2)C2CCN(C(=O)OC(C)(C)C)CC2)c1`, the activity change, negative = less growth was inactive: -21.3%.
Then `CN1CCC(Nc2ccc(Cl)cc2)CC1`, with inactive: 2.87%.
Then `CCOc1ncccc1C(=O)NCC1(N2CCOCC2)CCCCC1`, with inactive: -1.24%.
With `CN1CCC(Nc2ccc(F)c(Cl)c2)CC1`, the activity change, negative = less growth was inactive: -5.96%.
With `CCCOc1ccc(C(=O)NCC2(N(C)C)CCCCC2)cc1` the figure was inactive: -2.56%.
With `O=c1[nH]c2ccccc2n1C1CCN(C(c2cc3ccccc3o2)c2nnnn2C2CCCC2)CC1` (stereo not drawn) the figure was inactive: 3.29%.
In the case of `CC(C)(C)OC(=O)N1CCC(Nc2ccccc2)CC1`, the activity change, negative = less growth is inactive: 4.85%.
With `O=C(O)C1(Nc2ccccc2)CCN(Cc2ccccc2)CC1` the figure was inactive: 6.48%; with `NN(c1ccccc1)C1CCN(CCc2ccccc2)CC1`, inactive: -13.9%.
Then `O=C(NCC1(N2CCOCC2)CCCCC1)c1cc2ccccc2o1`, with inactive: 3.74%; and `O=c1[nH]c2ccccc2n1C1CCN(C(c2ccccc2OC(F)(F)F)c2nnnn2C2CCCCC2)CC1` (stereo not drawn), with inactive: -0.672%.
With `O=C(NCC1(N2CCCCC2)CCCCC1)c1ccc(Cl)nc1` the figure was inactive: 2.83%.
Take `Cc1cc(C)cc(N(C(=O)c2ccccc2)C2CCN(C(=O)OC(C)(C)C)CC2)c1`: the activity change, negative = less growth was inactive: 12.1%.
Then `CCOC(=O)N1CCC(Nc2ccc(OC)cc2)CC1`, with inactive: 0.757%; and `CCCCn1nnnc1C(c1ccc(OC)cc1)N1CCC(n2c(=O)[nH]c3ccccc32)CC1` (stereo not drawn), with inactive: -9.53%; and `O=C(OC1CN2CCC1CC2)C1c2ccccc2Oc2ccccc21` (stereo not drawn), with inactive: -8.15%.
As for `O=c1[nH]c2ccccc2n1C1CCN(C(c2cc3ccccc3o2)c2nnnn2C2CCCCC2)CC1` (stereo not drawn), the activity change, negative = less growth was inactive: 8.89%.
Regarding `O=C(NCC1(N2CCCCC2)CCCCC1)c1ccc(Cl)s1`, the activity change, negative = less growth was inactive: -18.3%.
With `N#CC1(Nc2ccccc2)CCN(Cc2ccccc2)CC1` the figure was inactive: 20.3%.
Regarding `O=C1C(O)=C([N+](=O)[O-])C(=O)C(O)=C1[N+](=O)[O-]`, the activity change, negative = less growth was inactive: -22.7%.
As for `O=C(NCC1(N2CCCCC2)CCCCC1)c1ccc(=O)[nH]c1`, the activity change, negative = less growth was inactive: -1.69%.
With `CCCCn1nnnc1C(c1cccs1)N1CCC(n2c(=O)[nH]c3ccccc32)CC1` (stereo not drawn) the figure was inactive: 0.43%; with `CCCCn1nnnc1C(CC)N1CCC(n2c(=O)[nH]c3ccccc32)CC1` (stereo not drawn), inactive: -1.28%; with `O=C(NCC1(N2CCCCC2)CCCCC1)c1cccs1`, inactive: -10.7%.
For `COc1ccc(C(=O)NCC2(N3CCCCC3)CCCCC2)cc1`, the activity change, negative = less growth is inactive: -8.33%.
For the compound `CCC(c1nnnn1C1CCCC1)N1CCC(n2c(=O)[nH]c3ccccc32)CC1` (stereo not drawn), the activity change, negative = less growth was inactive: -2.12%.
With `COc1ccc(C(=O)NCC2(N3CCCCC3)CCCCC2)c(OC)c1OC` the figure was inactive: 6.06%; with `CC(C)(C)OC(=O)N1CCC(N(C(=O)c2ccccc2)c2ccc(F)cc2)CC1`, inactive: 4.11%.
Regarding `CSc1ccccc1C(=O)NCC1(N2CCCCC2)CCCCC1`, the activity change, negative = less growth was inactive: -23.4%.
Turning to `Cc1cccc(NC2(C#N)CCN(Cc3ccccc3)CC2)c1`, the activity change, negative = less growth was inactive: -5.91%.
On to `O=c1[nH]c2ccccc2n1C1CCN(C(c2ccccc2)c2nnnn2C2CCCCC2)CC1` (stereo not drawn), for which the activity change, negative = less growth is inactive: -10.8%.
Then `O=c1[nH]c2ccccc2n1C1CCN(C(c2cccc3ccccc23)c2nnnn2C2CCCC2)CC1` (stereo not drawn), with inactive: 9.11%.
On to `COc1cc(C(=O)NCC2(N(C)C)CCCCC2)ccc1OC(F)F`, for which the activity change, negative = less growth was inactive: 28.6%.
With `CCOC(=O)N1CCC(Nc2cccc(C)c2)CC1` the figure was inactive: -3.32%; with `CCOc1ccc(C)cc1CN(CCCl)CCCl`, inactive: -21.7%; with `CC(C)(C)n1nnnc1C(c1ccccc1)N1CCC(n2c(=O)[nH]c3ccccc32)CC1` (stereo not drawn), inactive: -2.28%.
Take `O=C1CCN(Cc2ccccc2)CC1`: the activity change, negative = less growth was inactive: -17.3%.
With `O=C(NCC1(N2CCCCC2)CCCCC1)c1ccc(F)cc1` the figure was inactive: -4.12%.
For the compound `CCCCn1nnnc1C(c1cc2ccccc2o1)N1CCC(n2c(=O)[nH]c3ccccc32)CC1` (stereo not drawn), the activity change, negative = less growth was inactive: 7.26%.
Take `O=P1(N(CCCl)CCCl)SCCCS1`: the activity change, negative = less growth is inactive: 2.89%.
With `CCCCOc1ccc(C(=O)NCC2(N3CCOCC3)CCCCC2)cc1`, the activity change, negative = less growth is inactive: -1.83%.
Then `COc1ccc(NC2CCN(CCc3ccccc3)CC2)c(OC)c1`, with inactive: -4.76%.
As for `CCOC(=O)N1CCC(Nc2ccc(F)cc2)CC1`, the activity change, negative = less growth is inactive: -4.05%.
Then `O=C(NCC1(N2CCCCC2)CCCCC1)c1cccc(C(F)(F)F)c1`, with inactive: -1.63%.
Regarding `O=[N+]([O-])c1cc([N+](=O)[O-])c(NCC2CCS(=O)(=O)C2)c([N+](=O)[O-])c1` (stereo not drawn), the activity change, negative = less growth was inactive: -4.87%.
With `CCCCn1nnnc1C(c1cccc2ccccc12)N1CCC(n2c(=O)[nH]c3ccccc32)CC1` (stereo not drawn) the figure was inactive: 1.63%.
As for `CN1CCN(CCOC(=O)C(O)(c2ccccc2)c2ccccc2)CC1`, the activity change, negative = less growth is inactive: 1.13%.
Consider `COc1ccc(NC2CCN(C(=O)OC(C)(C)C)CC2)cc1`, for which the activity change, negative = less growth was inactive: -13.9%.
With `CC(C)c1ccc(C(=O)NCC2(N3CCOCC3)CCCCC2)cc1`, the activity change, negative = less growth is inactive: -21.2%.
Then `COc1cc(C(=O)NCC2(N3CCCCC3)CCCCC2)ccc1OC(F)F`, with inactive: 1.19%.
Consider `O=C(NCC1(N2CCOCC2)CCCCC1)c1cc(=O)[nH]c2ccccc12`, for which the activity change, negative = less growth was inactive: 4.23%.
In the case of `CC(C)(C)n1nnnc1C(c1ccccc1OC(F)(F)F)N1CCC(n2c(=O)[nH]c3ccccc32)CC1` (stereo not drawn), the activity change, negative = less growth was inactive: 5.47%.
